PubChem BioAssay AID1259414, Drosophila RNAi Screening Center – 2018

- Aim: 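Host factors increasing or decreasing Wolbachia levels in cultured fly cells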 (primary screen)
- Cells: Drosophila JW18 cells infected with Wolbachia
- Reagent: long dsRNA against Drosophila genes, 0.25 µg dsRNA per well of a 384-well plate
- Timing: 5 days
- Challenge: cells persistently infected with Wolbachia before knock-down; no added drug
- Measured: 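Automated imaging of bacterial rRNA staining divided by host cell count, reported as plate-normalised robust z-score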
- Scale: Wolbachia per cell robust z: higher = more Wolbachia per host cell than the plate typical
- Call rule: 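Hit when robust z is 1.5 or more, or -1.5 or less, in at least two of three replicates; excludes dsRNAs with several or no targets, genes not expressed in JW18 and well A1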
The deposit covers about 24,000 reagents; this is a random part of those with a known target gene and a result. In the full data, about 1,210 (5%) got an active call. 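Inactive calls also include excluded dsRNAs with several or no targets, genes unexpressed in JW18, and well A1, regardless of score.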 A number with no mark means an inactive call. Reagents against one gene are numbered here.

no.	target	reagent no.	Wolbachia per cell robust z, rep 1	Wolbachia per cell robust z, rep 2	Wolbachia per cell robust z, rep 3
1	Pi4KIIIalpha	1	0.149	0.188	-0.566
2	Pi4KIIIalpha	2	0.673	0.534	-0.121
3	GstE14	1	0.229	0.48	-2.04
4	GstE14	2	-6.61	1.08	0.0571
5	l(3)04053	1	0.316	1.22	-1.35
6	CG4021	1	-0.557	-0.429	-0.563
7	CG4021	2	-0.196	0.467	-0.482
8	CG30088	1	0.8	0.862	0.332
9	CG30088	2	-0.526	-0.514	-0.602
10	RacGAP84C	1	-0.0698	-0.448	0.0196
11	caps	1	-0.629	0.567	0.802
12	caps	2	0.43	0.662	0.7
13	Mnat9	1	-3.74	-0.882	-0.653
14	Atg12	1	0.288	-0.773	-6.93
15	CG40485	1	1.7	0.787	2.18
16	CG16865	1	-0.246	-0.0461	0.284
17	Lnpk	1	1.5	-0.695	0.948
18	Lnpk	2	0.34	0.208	0.0885
19	insv	1	0.297	-0.214	-0.156
20	insv	2	1.96	-13.6	-1.33
21	Ctr1C	1	0.76	0.431	-2.65
22	Sply	1	-1.8	0.112	1.06
23	Sply	2	0.945	0.765	0.819
24	CG5644	1	-0.036	-1.4	-0.55
25	myo	1	0.33	-0.549	0.214
26	Eig71Ec	1	-0.0315	0.341	-1.01
27	Spn42Db	1	-0.066	0.242	-1.12
28	Ubc4	1	-2.11	0.357	-0.376
29	CG18420	1	-1.02	-1.95	-0.797
30	Wdr33	1	-2.45	1.27	0.828
31	Wdr33	2	0.776	0.782	2.29
32	kmg	1	-0.11	-4.81	-0.237
33	CG9932	1	0.114	0.0533	0.94
34	CG14377	1	0.758	-0.213	0.404
35	CG14377	2	1.66	1.23	0.845
36	papi	1	-0.385	0.606	-0.493
37	Nna1	1	-0.492	-1.15	-0.37
38	Nna1	2	-5.68 (active)	-0.0727	-3.27
39	Nna1	3	-0.138	-1.59	0.285
40	Atf6	1	1.67	0.673	0.875
41	Atf6	2	0.38	0.482	-0.36
42	Atf6	3	-0.176	-1.04	-0.91
43	Rpn8	1	1.07	2.56	1.24
44	Rpn8	2	3.35 (active)	2.1	2.81
45	vari	1	0.736	-4.86	-0.161
46	CG12608	1	-2.5	0.605	0.117

Records above whose gene name begins with L or l:
target	reagent no.	Wolbachia per cell robust z, rep 1	Wolbachia per cell robust z, rep 2	Wolbachia per cell robust z, rep 3
l(3)04053	1	0.316	1.22	-1.35
Lnpk	1	1.5	-0.695	0.948
Lnpk	2	0.34	0.208	0.0885
